Taken from: PubChem BioAssay AID624099 (ICCB-Longwood, 2012)

- Test: 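Human genes that papillomavirus E2 requires to repress the HPV18 LCR promoter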 (primary screen)
- System: human C33A cervical carcinoma cells (HPV-negative) stably expressing BPV1 E2 and an HPV18 LCR luciferase reporter
- Knock-down reagent: siRNA pool against human genes, 40 nM
- Timing: 72 h
- Measured: 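HPV18 LCR reporter light per well, converted to plate-wise z-scores that exclude control wells, and averaged over triplicate plates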
- Direction: mean z-score and z-score: higher = stronger reporter signal, weaker E2 silencing
- Active means: 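Mean z ≥ 2 together with z ≥ 2 in two or more of the three replicates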
The whole screen tested about 21,000 reagents; below is a random part of them. Of all reagents, 497 (2.4%) are marked active. 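Higher z means weaker E2 silencing; only reporter increases were scored, and knock-downs that hurt cell survival may mask genuine repressor factors.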 No sequences are given here.

TP53BP2 gave mean z-score 0.48; z-score, replicate A = 0.52; z-score, replicate B = 0.32; z-score, replicate C = 0.61; inactive.
With knock-down of ASCC1, the record shows mean z-score -0.02; z-score, replicate A = -0.31; z-score, replicate B = 0.27; z-score, replicate C = -0.02; inactive.
Against USP5 the deposit lists mean z-score 0.64; z-score, replicate A = 0.61; z-score, replicate B = 0.46; z-score, replicate C = 0.83; inactive.
HDGFL1 gave mean z-score -0.07; z-score, replicate A = 0.02; z-score, replicate B = -0.24; z-score, replicate C = 0.02; inactive.
After knock-down of LINC00640, the record shows mean z-score 0.29; z-score, replicate A = 0.7; z-score, replicate B = -0.35; z-score, replicate C = 0.51; inactive.
With knock-down of HMX3, the record shows mean z-score 0.28; z-score, replicate A = 0.16; z-score, replicate B = 0.35; z-score, replicate C = 0.33; inactive.
With knock-down of RBPMS the results were mean z-score -0.74; z-score, replicate A = -0.55; z-score, replicate B = -0.82; z-score, replicate C = -0.84; inactive.
Against FXYD2, the entry reads mean z-score -0.47; z-score, replicate A = -0.42; z-score, replicate B = -0.33; z-score, replicate C = -0.67; inactive.
Silencing of VSNL1 gave: mean z-score 1.26; z-score, replicate A = 1.16; z-score, replicate B = 1.17; z-score, replicate C = 1.44; inactive.
Knock-down of CIP2A came out at: mean z-score -0.26; z-score, replicate A = 0.47; z-score, replicate B = -0.74; z-score, replicate C = -0.5; inactive.
MYL5 showed mean z-score -0.01; z-score, replicate A = 0.38; z-score, replicate B = 0.06; z-score, replicate C = -0.48; inactive.
With knock-down of ERCC3, the screen gave mean z-score -1.22; z-score, replicate A = -1.34; z-score, replicate B = -1.24; z-score, replicate C = -1.07; inactive.
SYTL3 gave mean z-score -1.98; z-score, replicate A = -1.99; z-score, replicate B = -2.05; z-score, replicate C = -1.91; inactive.
Against DNAJC2, the values are mean z-score 0.03; z-score, replicate A = -0.28; z-score, replicate B = -0.02; z-score, replicate C = 0.38; inactive.

Reformatted: entries from further up.
gene,mean z-score,"z-score, replicate A","z-score, replicate B","z-score, replicate C",Call
FXYD2,-0.47,-0.42,-0.33,-0.67,inactive
VSNL1,1.26,1.16,1.17,1.44,inactive
